PubChem BioAssay AID504761 | Drosophila RNAi Screening Center – 2011
In all, the deposit lists about 22,000 reagents; this is a random part of those with a known target gene and a result. Of all reagents, 116 (0.52%) got an active call. 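Calls depend on retest data that are not deposited; infection was ranked per plate without normalising between plates; the unit of the infection score is not given.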 Raw values are not corrected between plates. Reagents against one gene are numbered here. A plus sign joins genes that one reagent is predicted to hit. Not given: the amount of reagent, the time to read-out.

Test: 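Insect host genes that dengue virus relies on to spread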 (primary screen)
System: D.Mel-2 cells from Drosophila
Reagents: long dsRNA against Drosophila genes
Conditions: infection with dengue virus type 2; dose and infection time not stated
Measured: 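Cells stained for dengue envelope protein and imaged; percent of infected cells per well on duplicate plates, ranked by infection, with stained nuclei counted for cell number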
Direction: infection score: higher = more virus-infected cells; cell count: higher = more cells in the well
Rule for the call: 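Very low infection ranking in both replicate wells (chance probability at most 0.065), then a retest showing infection dropped 1.5-fold or more at p below 0.05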
Meaning of the calls: active = confirmed: knock-down lowers infection; inactive = not picked or not confirmed

target | reagent no. | infection score, replicate 1 | infection score, replicate 2 | cell count, replicate 1 | cell count, replicate 2 | call
trpl (transient receptor potential-like) | 1 | 20.1 | 14.3 | 6472 | 6157 | inactive
trpl (transient receptor potential-like) | 2 | 0.57 | 7.91 | 6190 | 6722 | inactive
trpl (transient receptor potential-like) | 3 | 4.42 | 4.24 | 6656 | 6445 | inactive
CG9067 | 1 | 20.5 | 12.7 | 3673 | 5776 | inactive
Ho (Heme oxygenase) | 1 | 8.98 | 5.87 | 6369 | 6320 | inactive
Lcp65APsi (pseudo) | 1 | 2.45 | 2.83 | 5467 | 5436 | inactive
Lcp65APsi (pseudo) | 2 | 0.54 | 3.49 | 6075 | 5981 | inactive
CG6220 | 1 | 4.53 | 5.63 | 6505 | 6147 | inactive
Vha14-1 (Vacuolar H[+] ATPase 14kD subunit 1) | 1 | 0.82 | 1.53 | 5605 | 5686 | active
CG9525 | 1 | 8.15 | 5.59 | 5853 | 6079 | inactive
CG15096 | 1 | 2.71 | 3.69 | 6354 | 6637 | inactive
CG15096 | 2 | 5.21 | 1.96 | 6894 | 6373 | inactive
lectin-30A | 1 | 1.52 | 3.82 | 6571 | 6414 | inactive
CG9018 | 1 | 3.86 | 0.54 | 5548 | 6335 | inactive
CG9062 | 1 | 2.94 | 14.5 | 815 | 3681 | inactive
CG9062 | 2 | 11.6 | 8.92 | 6052 | 3373 | inactive
CG14691 | 1 | 3.29 | 26.7 | 6530 | 3731 | inactive
CG14691 | 2 | 13.9 | 2.11 | 5914 | 6576 | inactive
CG17304 (retired record) | 1 | 2.49 | 3.62 | 6832 | 7077 | inactive
CG17304 (retired record) | 2 | 8.54 | 12.6 | 3277 | 3960 | inactive
CG15601 | 1 | 15.7 | 5.93 | 5478 | 725 | inactive
CG15879 | 1 | 2.78 | 4.05 | 6508 | 6195 | inactive
CG15879 | 2 | 12.6 | 3.21 | 6582 | 6364 | inactive
Pis (Phosphatidylinositol synthase) | 1 | 28.8 | 14.6 | 5755 | 2261 | inactive
Pis (Phosphatidylinositol synthase) | 2 | 15.5 | 2.1 | 6432 | 6625 | inactive
OS9 + Hf | 1 | 16.3 | 14.9 | 6158 | 6550 | inactive
CG7824 | 1 | 4.83 | 3.72 | 6127 | 6585 | inactive
Nazo | 1 | 7.01 | 16 | 6591 | 5531 | inactive
CG3652 | 1 | 8.84 | 2.69 | 6406 | 6658 | inactive
CG13177 | 1 | 2.34 | 6.84 | 6680 | 5848 | inactive
CG6023 | 1 | 2.27 | 0.99 | 6776 | 6046 | inactive
CG9586 | 1 | 0.81 | 3.84 | 5950 | 6615 | inactive
CG9586 | 2 | 14.9 | 16.6 | 6247 | 6412 | inactive

Active calls (from the list above):
target | reagent no. | infection score, replicate 1 | infection score, replicate 2 | cell count, replicate 1 | cell count, replicate 2 | call
Vha14-1 (Vacuolar H[+] ATPase 14kD subunit 1) | 1 | 0.82 | 1.53 | 5605 | 5686 | active

More reagents:
target | reagent no. | infection score, replicate 1 | infection score, replicate 2 | cell count, replicate 1 | cell count, replicate 2 | call
CG6983 | 1 | 6.04 | 1.55 | 6710 | 7011 | inactive
Dpy-30L2 (Dpy-30-like 2) | 1 | 3.43 | 10.5 | 5809 | 5180 | inactive
Dpy-30L2 (Dpy-30-like 2) | 2 | 2.59 | 3.77 | 6286 | 6106 | inactive
CG5171 | 1 | 9.12 | 2.69 | 5779 | 6535 | inactive
CG5171 | 2 | 20.1 | 7 | 5574 | 6310 | inactive
Tektin-C (Tektin C) | 1 | 1.88 | 8.73 | 6180 | 5644 | inactive
Tektin-C (Tektin C) | 2 | 3.79 | 1.47 | 5171 | 6448 | inactive
CG4116 | 1 | 5.5 | 0.85 | 4524 | 6132 | inactive
CG4116 | 2 | 4.79 | 17.4 | 1128 | 5342 | inactive
CG10513 | 1 | 1.88 | 5.49 | 6489 | 6563 | inactive
Cht10 (Chitinase 10) | 1 | 0.16 | 0.42 | 6751 | 6858 | active
Cht10 (Chitinase 10) | 2 | 19.8 | 13.2 | 6025 | 6377 | inactive
Cht10 (Chitinase 10) | 3 | 4.67 | 8.3 | 6640 | 6684 | inactive
Takl1 (Tak1-like 1) | 1 | 1.46 | 1.58 | 5803 | 5769 | inactive
Takl1 (Tak1-like 1) | 2 | 6.22 | 7.98 | 6299 | 1304 | inactive
CROT (Carnitine O-octanoyltransferase) | 1 | 9.82 | 12.1 | 6326 | 6950 | inactive
CROT (Carnitine O-octanoyltransferase) | 2 | 11.7 | 1.33 | 5041 | 6392 | inactive
CROT (Carnitine O-octanoyltransferase) | 3 | 8.01 | 19.2 | 6507 | 5361 | inactive
RNaseZ (Ribonuclease Z) | 1 | 7.21 | 1.24 | 6060 | 6427 | inactive
CG43980 | 1 | 4.33 | 2.64 | 6092 | 5689 | inactive
CG43980 | 2 | 2.89 | 4.76 | 6376 | 6297 | inactive
CG43980 | 3 | 3.62 | 4.21 | 5722 | 6339 | inactive
Adk2 (Adenosine kinase 2) | 1 | 7.55 | 5.35 | 6883 | 6730 | inactive
CG15387 | 1 | 2.67 | 5.49 | 6364 | 6139 | inactive
RpL38 (Ribosomal protein L38) | 1 | 3.8 | 2.19 | 5531 | 5623 | inactive
